A mixed list of measured activities; the numbers were collected in NIAID ChemDB.

Shared fields: growth or infection tests; species: Candida albicans; endpoint: MIC

Conditions beyond the fields shown may differ between rows. Blank or dashed fields: not listed here.

SMILES,strain,method,result
CCCSc1cc(=S)ss1,Clinical isolate 00-622,,4 µg/mL
COc1cc(NC(C)CCCNC(=O)CC(NC(=O)[C@H](N)CCCN)C(=O)O)c2ncccc2c1,,broth dilution,>20 µg/mL
CC(=O)N1CCN(c2ccc(OC[C@H]3CO[C@](Cn4ccnc4)(c4ccc(Cl)cc4Cl)O3)cc2)CC1,B59630,,>4 µg/mL
C[C@H]1[C@H](O)[C@@H](C)/C=C/C=C/C=C/C=C/C=C/C=C/C=C/[C@H](O[C@@H]2O[C@H](C)[C@@H](O)[C@H](N)[C@@H]2O)C[C@@H]2O[C@](O)(C[C@@H](O)C[C@@H](O)CC[C@H](O)[C@@H](O)C[C@@H](O)CC(=O)O[C@H]1C)C[C@H](O)[C@H]2C(=O)O,ATCC64553,,0.125 µg/mL
C[C@@H](SC1COC(/C=C/C=C/c2ccc(C#N)cc2F)OC1)[C@](O)(Cn1cncn1)c1ccc(F)cc1F,CAL-0013,,0.016 µg/mL
C[C@@H]1[C@H](O)[C@@H](C)/C=C/C=C/C=C/C=C/C=C/C=C/C=C/[C@H](OC2O[C@H](C)[C@@H](O)[C@H](N(CCCN)CCCN)[C@@H]2O)C[C@@H]2O[C@](O)(C[C@@H](O)C[C@@H](O)[C@H](O)CC[C@@H](O)C[C@@H](O)CC(=O)O[C@H]1C)C[C@H](O)[C@H]2C(=O)O,CAF2-1,,0.1 µM
Cc1ccc2c(c1)nc1c(CN)c(-c3c(-c4ccc(F)cc4)[nH]c4ccccc34)c(CN)c(N)n12,MTCC 227,broth dilution,250 µg/mL
COc1ccccc1N1CCN(CCc2nnn([C@@H](C)[C@](O)(Cn3cncn3)c3ccc(F)cc3F)n2)CC1,V-01-191A-261 (resistant),,8 µg/mL
O=C(CN1CCCC1)N/N=C\C(=O)c1ccc(-c2ccccc2)cc1,,,>50 µg/mL
C[C@H](n1nnnc1CCN1CCN(C(c2ccccc2)c2ccccc2)CC1)[C@](O)(Cn1cncn1)c1ccc(F)cc1F,,,4 µg/mL
COc1cc(NC2=C(SC)C(=O)c3ncccc3C2=O)cc(OC)c1,ATCC 10231,,50 µg/mL
CCC(C)CC(C)CCCCCCCCC(=O)N[C@H]1C[C@@H](O)[C@H](NCCN)NC(=O)[C@@H]2[C@@H](O)CCN2C(=O)[C@H]([C@H](O)CCN)NC(=O)[C@H]([C@H](O)[C@@H](O)c2ccc(O)cc2)NC(=O)[C@@H]2C[C@@H](O)CN2C(=O)[C@H]([C@@H](C)O)NC1=O,MY1585,,0.25 µg/mL
COc1cc(NC(C)CCCNC(=O)CC(NC(=O)[C@@H](N)CCCN=C(N)N)C(=O)O)c2nc(C(C)(C)C)ccc2c1,,broth dilution,>20 µg/mL
CC(C)=CCCCCCNC1NCCC2c3ccccc3CCN12,NFI0124,,32 µg/mL
COc1cc(NC(C)CCCNC(=O)CCC(NC(=O)[C@@H](N)CCCCN)C(=O)O)c2nc(C(C)(C)C)ccc2c1,,broth dilution,>20 µg/mL
Cc1csc(NC(=O)CSc2nnc(C(C)Oc3ccccc3)n2-c2ccccc2)n1,NRRL Y-27077,,16 µg/mL
N=c1oc2ccccc2c2csc(N)c12,ATCC 2091,broth dilution,128 µg/mL
CC(C)(O)c1cn(-c2ccc(Cl)cc2)nn1,URM 3716,broth dilution,256 µg/mL
COc1cc(/C=N/NC(=O)c2nnn(-c3ccnc4c(C(F)(F)F)cccc34)c2C)c([N+](=O)[O-])cc1OC,,,12.5 µg/mL
C[C@H](n1nnc(CCN2CCN(c3ccc(F)cc3)CC2)n1)[C@](O)(Cn1cncn1)c1ccc(F)cc1F,,,2 µg/mL
O=C(CN1CCCC1)N/N=C\C(=O)c1ccc(Oc2ccccc2)cc1,,,>50 µg/mL
COc1ccc(/C=C/C(=O)c2nnn(-c3ccnc4c(C(F)(F)F)cccc34)c2C)cc1,,,25 µg/mL
Cc1ccc(OC(C)c2n[nH]c(=S)n2-c2ccccc2)cc1,Clinical isolates,,16 µg/mL
C[C@H]1[C@H](O)[C@@H](C)/C=C/C=C/C=C/C=C/C=C/C=C/C=C/[C@H](O[C@@H]2O[C@H](C)[C@@H](O)[C@H](N)[C@@H]2O)C[C@@H]2O[C@](O)(C[C@@H](O)C[C@@H](O)CC[C@H](O)[C@@H](O)C[C@@H](O)CC(=O)O[C@H]1C)C[C@H](O)[C@H]2C(=O)O,Isolate 5,,0.25 µg/mL
Cc1ccsc1/C=N/NC(=O)c1nnn(-c2ccnc3c(C(F)(F)F)cccc23)c1C,,,6 µg/mL
O=C1C=CC[C@H](/C=C/c2ccccc2)O1,,broth dilution,78.3 µg/mL
CCCCCOc1ccc(-c2ccc(-c3ccc(C(=O)N[C@H]4CCCNC(=O)C5[C@H](N)CN5C(=O)C(C(C)O)NC(=O)C(CCc5ccc(O)cc5)NC(=O)C5C[C@@H](O)CN5C(=O)C(C(C)O)NC4=O)cc3)cc2)cc1,ATCC 62376,,0.2 µg/mL
O=C(CN1CCCC1)N/N=C\C(=O)c1ccc(Sc2ccccc2)cc1,,,>50 µg/mL
CO[C@H]1[C@@H](OC(=O)OCc2ccccc2)[C@H](O)[C@H](OCC23C4C=C(C(C)C)C2(C(=O)O)C(C=O)(C4)[C@@H]2CC[C@@H](C)[C@H]23)O[C@@H]1C,2005,,2 µg/mL
CCCCCOc1ccc(-c2ccc(-c3ccc(C(=O)N[C@H]4CCCNC(=O)C5[C@@H](O)[C@@H](O)N5C(=O)C(C(C)O)NC(=O)C(CCc5ccc(O)cc5)NC(=O)C5C[C@@H](O)CN5C(=O)C(C(C)O)NC4=O)cc3)cc2)cc1,ATCC 10231,,0.1 µg/mL
COc1cc(NC(C)CCCNC(=O)CC(NC(=O)[C@H](N)CCCN)C(=O)O)c2nc(C(C)(C)C)ccc2c1,,broth dilution,>20 µg/mL
CCCCCCCC(=O)N[C@H]1CC2C(=O)NCCC[C@H](NC(=O)c3ccc(-c4ccc(-c5ccc(OCCCCC)cc5)cc4)cc3)C(=O)NC(C(C)O)C(=O)N3C[C@H](O)CC3C(=O)NC(CCc3ccc(O)cc3)C(=O)NC(C(C)O)C(=O)N2C1,ATCC 10231,,50 µg/mL
COc1ccc2c(c1)CCN1C(NCCCCCCC(C)C)NCCC21,NFI2103,,16 µg/mL
CCCCCOc1ccc(-c2ccc(-c3ccc(C(=O)N[C@H]4CCCNC(=O)C5C[C@H](NC(=O)c6cn[nH]c6)CN5C(=O)C(C(C)O)NC(=O)C(CCc5ccc(O)cc5)NC(=O)C5C[C@@H](O)CN5C(=O)C(C(C)O)NC4=O)cc3)cc2)cc1,ATCC 62376,,0.2 µg/mL
Cc1c(C(=O)N/N=C/c2ccc(Cl)cc2)nnn1-c1ccnc2c(C(F)(F)F)cccc12,,,12.5 µg/mL
Cc1ccc2c(c1)nc1c(CN)c(-c3c(-c4ccccc4)[nH]c4ccccc34)c(CN)c(N)n12,MTCC 227,broth dilution,1000 µg/mL
CCCCCOc1ccc(-c2ccc(-c3ccc(C(=O)N[C@H]4CCCNC(=O)C5C[C@@H](O)N5C(=O)C(C(C)O)NC(=O)C(CCc5ccc(O)cc5)NC(=O)C5C[C@@H](O)CN5C(=O)C(C(C)O)NC4=O)cc3)cc2)cc1,ATCC CCH442,,0.78 µg/mL
CSC1=C(Nc2ccc(O)cc2)C(=O)c2cccnc2C1=O,ATCC 10231,,25 µg/mL
CCSSc1ssc(=S)c1-c1ccccc1,ATCC 10231,,62.5 µg/mL
CCOc1ccc(NC2=C(SC)C(=O)c3ncccc3C2=O)cc1,ATCC 10231,,6.3 µg/mL
Cc1ccc2c(c1)nc1c(CN)c(-c3c(-c4ccc(S(C)(=O)=O)cc4)[nH]c4ccccc34)c(CN)c(N)n12,MTCC 227,broth dilution,1000 µg/mL
CCCCCOc1ccc(-c2ccc(-c3ccc(C(=O)N[C@H]4CCCNC(=O)C5C[C@H](O)N5C(=O)C(C(C)O)NC(=O)C(CCc5ccc(O)cc5)NC(=O)C5C[C@@H](O)CN5C(=O)C(C(C)O)NC4=O)cc3)cc2)cc1,ATCC CCH442,,0.39 µg/mL
CCCCCCCCNC1NCCC2c3ccccc3CCN12,NFI2103,,16 µg/mL
C[C@H](n1nnnc1CCN1CCN(c2ccccn2)CC1)[C@](O)(Cn1cncn1)c1ccc(F)cc1F,V-01-191A-261 (resistant),,4 µg/mL
C[C@@H]1[C@H](O)[C@@H](C)/C=C/C=C/C=C/C=C/C=C/C=C/C=C/[C@H](OC2O[C@H](C)[C@@H](O)[C@H](NCCCN)[C@@H]2O)C[C@@H]2O[C@](O)(C[C@@H](O)C[C@@H](O)[C@H](O)CC[C@@H](O)C[C@@H](O)CC(=O)O[C@H]1C)C[C@H](O)[C@H]2C(=O)O,CAF2-1,,0.1 µM
CC(C)(C)CSc1cc(=S)ss1,ATCC 10231,,50 µg/mL
C[C@H](n1nnnc1CCN1CCN(c2ccc(F)cc2)CC1)[C@](O)(Cn1cncn1)c1ccc(F)cc1F,,,2 µg/mL
N#Cc1ccc(-c2[nH]c3ccccc3c2-c2c(CN)c(N)n3c(nc4ccccc43)c2CN)cc1,MTCC 227,broth dilution,500 µg/mL
CCCCCCCCCCCCSc1cc(=S)ss1,ATCC 10231,,>250 µg/mL
CC(Oc1ccc(Cl)cc1)c1nnc(SCC(=O)Nc2nccs2)n1-c1ccccc1,NRRL Y-27077,,8 µg/mL
O=C(CN1CCCCC1)N/N=C\C(=O)c1ccccc1,,,>50 µg/mL
S=c1cc(Sc2ccccc2)ss1,Clinical isolate 00-622,,<0.13 µg/mL
C=C(CCCCCNC1NCCC2c3ccc(OC)cc3CCN12)C(C)C,NFI0124,,32 µg/mL
COc1ccccc1N1CCN(CCc2nnnn2[C@@H](C)[C@](O)(Cn2cncn2)c2ccc(F)cc2F)CC1,V-01-191A-261 (resistant),,4 µg/mL
CSC1=C(Nc2ccc(Br)cc2C)C(=O)c2cccnc2C1=O,ATCC 10231,,1.6 µg/mL
COc1cc(NC(C)CCCNC(=O)[C@@H](CCCN)NC(=O)[C@H](N)CCCN)c2ncccc2c1,,broth dilution,>20 µg/mL
C[C@H](n1nnnc1CCN1CCN(c2ccccc2)CC1)[C@](O)(Cn1cncn1)c1ccc(F)cc1F,V-01-191A-261 (resistant),,8 µg/mL
CC(Oc1ccc(Cl)cc1)c1n[nH]c(=S)n1-c1ccccc1,NRRL Y-27077,,2 µg/mL
C[C@@H]1[C@H](O)[C@@H](C)/C=C/C=C/C=C/C=C/C=C/C=C/C=C/[C@H](OC2O[C@H](C)[C@@H](O)[C@H](N(CCCN)CCCN)[C@@H]2O)C[C@@H]2O[C@](O)(C[C@@H](O)C[C@@H](O)[C@H](O)CC[C@@H](O)C[C@@H](O)CC(=O)O[C@H]1C)C[C@H](O)[C@H]2C(=O)NCC[N+](C)(C)C,CAF2-1,,1.4 µM
CSC1=C(Nc2cccc(C#N)c2)C(=O)c2cccnc2C1=O,ATCC 10231,,50 µg/mL

The first 8 rows once more:

SMILES,strain,method,result
CCCSc1cc(=S)ss1,Clinical isolate 00-622,,4 µg/mL
COc1cc(NC(C)CCCNC(=O)CC(NC(=O)[C@H](N)CCCN)C(=O)O)c2ncccc2c1,,broth dilution,>20 µg/mL
CC(=O)N1CCN(c2ccc(OC[C@H]3CO[C@](Cn4ccnc4)(c4ccc(Cl)cc4Cl)O3)cc2)CC1,B59630,,>4 µg/mL
C[C@H]1[C@H](O)[C@@H](C)/C=C/C=C/C=C/C=C/C=C/C=C/C=C/[C@H](O[C@@H]2O[C@H](C)[C@@H](O)[C@H](N)[C@@H]2O)C[C@@H]2O[C@](O)(C[C@@H](O)C[C@@H](O)CC[C@H](O)[C@@H](O)C[C@@H](O)CC(=O)O[C@H]1C)C[C@H](O)[C@H]2C(=O)O,ATCC64553,,0.125 µg/mL
C[C@@H](SC1COC(/C=C/C=C/c2ccc(C#N)cc2F)OC1)[C@](O)(Cn1cncn1)c1ccc(F)cc1F,CAL-0013,,0.016 µg/mL
C[C@@H]1[C@H](O)[C@@H](C)/C=C/C=C/C=C/C=C/C=C/C=C/C=C/[C@H](OC2O[C@H](C)[C@@H](O)[C@H](N(CCCN)CCCN)[C@@H]2O)C[C@@H]2O[C@](O)(C[C@@H](O)C[C@@H](O)[C@H](O)CC[C@@H](O)C[C@@H](O)CC(=O)O[C@H]1C)C[C@H](O)[C@H]2C(=O)O,CAF2-1,,0.1 µM
Cc1ccc2c(c1)nc1c(CN)c(-c3c(-c4ccc(F)cc4)[nH]c4ccccc34)c(CN)c(N)n12,MTCC 227,broth dilution,250 µg/mL
COc1ccccc1N1CCN(CCc2nnn([C@@H](C)[C@](O)(Cn3cncn3)c3ccc(F)cc3F)n2)CC1,V-01-191A-261 (resistant),,8 µg/mL